Anti-infective test results gathered from many reports (values: NIAID ChemDB through PubChem).

Shared fields: growth or infection tests; agent: Cytomegalovirus; read-out: EC50

Neighbouring rows are from separate reports. An empty or dashed field is not shown. ECn: concentration that inhibits the pathogen or its effect by n%. Two numbers with a dash give a range or band.

SMILES,cells,strain,read by,result
CCOc1cccnc1SCc1ccccc1,HEL,,cytopathic effect,>50 µg/mL
O=C(O)P(=O)(O)O,MRC-5,AD169,,102.6 µM
CC1(C)[C@@H](CO)CC[C@@]1(C)Cn1ccc(=O)[nH]c1=O,HEL,AD169,cytopathic effect,>50 µg/mL
OC[C@H]1O[C@@H](n2c(Br)nc3cc(Cl)c(Cl)cc32)[C@H](O)[C@@H]1O,,AD169,plaque count,0.5 µM
Cc1cn([C@@H]2O[C@H](CO)[C@](O)(C(F)(F)F)[C@H]2O)c(=O)[nH]c1=O,VERO,AD169,cytopathic effect,>50 µg/mL
CCCCCCCCCCCC(Sc1cccc[n+]1[O-])c1cc(C)ccc1C,HEL,,cytopathic effect,0.75 µg/mL
Cc1cn([C@H]2C[C@H](O[Si](C)(C)C(C)(C)C)[C@@H](/C=C/C#N)O2)c(=O)[nH]c1=O,HeLa,DAVIS,,10–20 µM
CN1c2ccc([N+](=O)[O-])cc2C(C)(C)C12C=Cc1cc([N+](=O)[O-])ccc1O2,HEL,AD169,plaque count,>8.7 µM
Cc1ccc(C)c(C(C)(Cl)S(=O)(=O)c2cccc[n+]2[O-])c1,HEL,,cytopathic effect,20 µg/mL
OC[C@H]1O[C@@H](n2c(SCc3ccccn3)nc3cc(Cl)c(Cl)cc32)[C@H](O)[C@@H]1O,HEL,,cytopathic effect,>50 µg/mL
O=S(=O)(Cc1ccccc1)c1ccccn1,HEL,,cytopathic effect,>50 µg/mL
COC(=O)/C=C1/[C@@H](O[Si](C)(C)C(C)(C)C)[C@H](n2cc(C)c(=O)n(C)c2=O)O[C@@H]1CO[Si](C)(C)C(C)(C)C,MRC-5,,plaque count,>36 µM
OCCOCn1c(SCc2ccccn2)nc2cc(Cl)c(Cl)cc21,HEL,,cytopathic effect,>50 µg/mL
O=S(=O)(Cc1cccc(F)c1)c1cccc[n+]1[O-],HEL,,cytopathic effect,>20 µg/mL
Cc1cn([C@H]2C/C(=N\O)[C@@H](CO)O2)c(=O)[nH]c1=O,HEL,DAVIS,cytopathic effect,>200 µg/mL
Cc1cn(C(CCN=[N+]=[N-])OCCO)c(=O)[nH]c1=O,HFF,,cytopathic effect,>200 µM
Cc1ccc(C)c(C(Cl)S(=O)(=O)c2c(C)ccc[n+]2[O-])c1,HEL,,cytopathic effect,>50 µg/mL
COC(=O)C[C@@H](SCCO)n1cnc2c(Cl)nc(N)nc21,HFF,,cytopathic effect,179 µM
CC1(C)[C@@H](CO)CC[C@@]1(C)Cn1cnc2c(Cl)ncnc21,HEL,AD169,cytopathic effect,>50 µg/mL
Cc1ccc(C)c(C(Sc2cccc[n+]2[O-])c2ccccc2)c1,HEL,,cytopathic effect,>5 µg/mL
CC(C)(C)[Si](C)(C)OC[C@H]1O[C@@H](n2ccc(=O)[nH]c2=O)[C@H](O[Si](C)(C)C(C)(C)C)[C@@]12O[C@H]2C(=O)NO,MRC-5,,plaque count,24 µM
Cc1cn(C(CCO)SCCO)c(=O)[nH]c1=O,HFF,,cytopathic effect,>200 µM
CN1c2ccc(Cl)cc2C(C)(C)C12C=Cc1cc([N+](=O)[O-])ccc1O2,HEL,DAVIS,plaque count,>1.8 µM
COC(=O)[C@@H]1O[C@]12[C@@H](CO[Si](C)(C)C(C)(C)C)O[C@@H](n1ccc(=O)[nH]c1=O)[C@@H]2O[Si](C)(C)C(C)(C)C,MRC-5,,plaque count,>20 µM
CC1(C)[C@@H](CO)CC[C@@]1(C)Cn1cc(I)c(=O)[nH]c1=O,HEL,AD169,cytopathic effect,>50 µg/mL
Cc1ccc(C)c(CS(=O)c2ncccc2O)c1,HEL,,cytopathic effect,>50 µg/mL
Nc1nc2c(ncn2COC(CO)CO)c(=O)[nH]1,HEL,AD169,plaque count,7.9 µM
Cc1ccc(C)c(C(CC(C)C)S(=O)(=O)c2cccc[n+]2[O-])c1,HEL,,cytopathic effect,0.27 µg/mL
CN1c2ccc(Cl)cc2C(C)(C)C12C=Cc1c(ccc3ccccc13)O2,HEL,AD169,plaque count,>44.2 µM
CCCCCCCCCCCCCCCCOCCCOP(=O)(O)CO[C@H](CO)Cn1ccc(N)nc1=O,,GDGP53,,0.02 µM
OCCOCn1c(CCc2ccccn2)nc2cc(Cl)c(Cl)cc21,HEL,,cytopathic effect,>100 µg/mL
Nc1ccn(C[C@@H](CO)OCP(=O)(O)O)c(=O)n1,HEL,AD169,plaque count,2.7 µM
O=[N+]([O-])c1ccccc1CS(=O)(=O)c1cccc[n+]1[O-],HEL,,cytopathic effect,>5 µg/mL
CC(C)CS[C@@H]1C[C@H](n2cnc3c(N)ncnc32)[C@@H](O)[C@H]1O,HEL,DAVIS,cytopathic effect,>200 µg/mL
OCCOCn1c(SCc2ccccn2)nc2ccccc21,HEL,,cytopathic effect,>100 µg/mL
CC1(C)c2ccccc2N(c2ccccc2)C12C=Nc1c(ccc3ccccc13)O2,HEL,AD169,plaque count,>204.8 µM
Cc1cccc(CS(=O)c2cccc[n+]2[O-])c1,HEL,,cytopathic effect,>20 µg/mL
CC(C)(C)[Si](C)(C)OC[C@H]1O[C@@H](n2ccc(=O)[nH]c2=O)[C@H](O[Si](C)(C)C(C)(C)C)/C1=C/CO,MRC-5,,plaque count,2.1 µM
CC1(C)[C@@H](CO)CC[C@@]1(C)Cn1nnc2c(=O)[nH]cnc21,HEL,AD169,cytopathic effect,>50 µg/mL
O=[N+]([O-])c1ccc(O)c(CSc2cccc[n+]2[O-])c1,HEL,,cytopathic effect,>50 µg/mL

A second listing of 4 rows from above:

SMILES,cells,strain,read by,result
Nc1ccn(C[C@@H](CO)OCP(=O)(O)O)c(=O)n1,HEL,AD169,plaque count,2.7 µM
Cc1ccc(C)c(C(CC(C)C)S(=O)(=O)c2cccc[n+]2[O-])c1,HEL,,cytopathic effect,0.27 µg/mL
COC(=O)C[C@@H](SCCO)n1cnc2c(Cl)nc(N)nc21,HFF,,cytopathic effect,179 µM
CCCCCCCCCCCCCCCCOCCCOP(=O)(O)CO[C@H](CO)Cn1ccc(N)nc1=O,,GDGP53,,0.02 µM